Anti-infective test results gathered from many reports (values: NIAID ChemDB through PubChem).

Common to all: cytotoxicity tests; measure: CC50

Neighbouring rows are from separate reports. CCn is the concentration with n% toxicity to the cells.

Nc1cccc(-c2ccc3c(c2)CN(c2cc(=O)n(O)c4ncccc24)CC3)c1 ; cells: HeLa ; value: <100 µM
CC(C)N(Cc1cccc(OCCCCCC(=O)OC(=O)O)c1)C(=O)c1ccc(-c2cc3ccccc3n2S(=O)(=O)c2ccccc2)cc1 ; cells: RAJI ; value: >20 µM
O=C(NCCc1ccc2c(n1)NCCC2)Nc1cccc2ocnc12 ; cells: PBMC ; value: 22 µM
CCOC(=O)c1c(O)c2cc(Cc3ccccc3)cnc2n(O)c1=O ; cells: HeLa ; value: <100 µM
COC(=O)N[C@H](C(=O)N[C@H](CCC[C@@H](CO)N(C)S(=O)(=O)c1ccc(N)cc1)C1CC1)C(c1ccccc1)c1ccccc1 ; method: microscopy ; cells: T lymphoid cells ; value: >10 µM
O=C(NCCc1ccc2c(n1)NCCC2)Nc1ccc(Cl)cc1F ; cells: PBMC ; value: 7 µM
CCCCCCNC(=S)Nc1ccc2c(c1)Cc1cc(Br)ccc1-2 ; method: MTS ; cells: Ava5-EG(delta4AB)SEAP ; value: >1 µM
CN1CCCC(NC(=O)NCCc2ccc3c(n2)NCCC3)C1 ; cells: PBMC ; value: 50 µM
S=C(Nc1ccc(N2CCOCC2)cc1)Nc1ccc2c(c1)Cc1cc(Br)ccc1-2 ; method: MTS ; cells: Ava5-EG(delta4AB)SEAP ; value: >1 µM
O=C(NCCc1ccccc1)c1ccc2c(c1)CN(c1cc(=O)n(O)c3ncccc13)CC2 ; cells: HeLa ; value: <100 µM
COc1cc2c(cc1OC)C(CC1(C)OCCO1)=NCC2 ; cells: RAJI ; value: <7.5 µM
NC(=S)Nc1cccc(OCCCCCc2cccc3ccccc23)c1 ; method: MTS ; cells: Ava5-EG(delta4AB)SEAP ; value: >1 µM
O=C(CCc1ccc2c(n1)NCCC2)NCc1ccc(Cl)c(Cl)c1 ; cells: PBMC ; value: 13 µM
COC(=O)N[C@@H](Cc1ccccc1Cl)C(=O)N[C@@H](C)CCC[C@@H](CO)N(C(C)C)S(=O)(=O)c1ccc(N)cc1 ; method: microscopy ; cells: T lymphoid cells ; value: >10 µM
CCCCCNC(=S)Nc1cccc(OCCCCCc2ccccc2)c1 ; method: MTS ; cells: Ava5-EG(delta4AB)SEAP ; value: >1 µM
Cc1noc(C)c1NC(=O)NCCc1ccc2c(n1)NCCC2 ; cells: PBMC ; value: 50 µM
CC(C)N(Cc1cccc(OCCCCCC(=O)OC(=O)O)c1)C(=O)c1ccc(-c2cccc(C(F)(F)F)c2)cc1 ; cells: HEK 293 ; value: >20 µM
CC(C)(C)Oc1ccc(S(=O)(=O)NCCc2ccc3c(n2)NCCC3)cc1 ; cells: PBMC ; value: 4.9 µM
COC(=O)N[C@H](C(=O)N[C@@H](C)CCC[C@@H](CO)N(CCCF)S(=O)(=O)c1ccc(N)cc1)C(c1ccccc1)c1ccccc1 ; method: microscopy ; cells: T lymphoid cells ; value: >10 µM
CC(C)N(Cc1cccc(OCCCCCC(=O)O)c1)C(=O)c1ccc(-c2ccc3c(c2)OCO3)cc1 ; cells: RAJI ; value: >20 µM
CC[C@@H](CCC[C@@H](CO)N(CC(C)C)S(=O)(=O)c1ccc(CO)cc1)NC(=O)[C@H](Cc1ccccc1Cl)NC(=O)OC ; method: microscopy ; cells: T lymphoid cells ; value: >10 µM
O=C(NCCc1ccc2c(n1)NCCC2)Nc1cccc(Cl)c1 ; cells: PBMC ; value: 3.5 µM
NC(=S)Nc1cccc(OCCCCCOc2ccc(C(F)(F)F)cc2)c1 ; method: MTS ; cells: Ava5-EG(delta4AB)SEAP ; value: >1 µM
CC(C)N(Cc1cccc(OCCCCCC(=O)OC(=O)O)c1)C(=O)c1ccc(-c2cccc3ccccc23)cc1 ; cells: RAJI ; value: >20 µM
O=C(NCCc1cccc(-n2ccnc2)n1)Nc1ccc(C(F)(F)F)c(F)c1 ; cells: PBMC ; value: 50 µM
CC[C@@H](CCC[C@@H](CO)N(CCC(C)C)S(=O)(=O)c1ccc(N)cc1)NC(=O)[C@@H](NC(=O)OC)C1c2ccccc2Oc2ccccc21 ; method: microscopy ; cells: T lymphoid cells ; value: >10 µM
O=c1c(-c2ccccc2C(F)(F)F)c(O)c2cccnc2n1O ; cells: HeLa ; value: <100 µM
CC(C)(C)OC(=O)NCC(OC(=O)C(O)CO)c1ccc2c(c1)OCO2 ; cells: BJ ; value: <7.5 µM
NC(=S)Nc1cccc(OCCCCCCCCc2ccccc2)c1 ; method: MTS ; cells: Ava5-EG(delta4AB)SEAP ; value: >1 µM
CC(NC(=O)c1c(O)c2cccnc2n(O)c1=O)c1ccccc1 ; cells: HeLa ; value: <100 µM
CCOC(=O)CCCCCOc1cccc(CN(C(=O)c2ccc(-c3ccoc3)cc2)C(C)C)c1 ; cells: BJ ; value: >20 µM
COC(=O)N[C@@H](Cc1ccccc1Cl)C(=O)N[C@@H](C)CCC[C@@H](CO)N(C)S(=O)(=O)c1ccc(CO)cc1 ; method: microscopy ; cells: T lymphoid cells ; value: >10 µM
S=C(NCc1ccccc1)Nc1ccc2c(c1)Cc1cc(Br)ccc1-2 ; method: MTS ; cells: Ava5-EG(delta4AB)SEAP ; value: >1 µM
O=C(NCCc1ccc2c(n1)NCCC2)Nc1cc(Cl)cc(Cl)c1 ; cells: PBMC ; value: 18.7 µM
CC[C@@H](CCC[C@@H](CO)N(CCC(C)C)S(=O)(=O)c1ccc(N)cc1)NC(=O)[C@@H](N)C(c1ccccc1)c1ccccc1 ; method: microscopy ; cells: T lymphoid cells ; value: >10 µM

3 of the rows above, restated:

{"smiles": "NC(=S)Nc1cccc(OCCCCCOc2ccc(C(F)(F)F)cc2)c1", "method": "MTS", "cells": "Ava5-EG(delta4AB)SEAP", "value": ">1 µM"}
{"smiles": "NC(=S)Nc1cccc(OCCCCCc2cccc3ccccc23)c1", "method": "MTS", "cells": "Ava5-EG(delta4AB)SEAP", "value": ">1 µM"}
{"smiles": "CC[C@@H](CCC[C@@H](CO)N(CCC(C)C)S(=O)(=O)c1ccc(N)cc1)NC(=O)[C@@H](NC(=O)OC)C1c2ccccc2Oc2ccccc21", "method": "microscopy", "cells": "T lymphoid cells", "value": ">10 µM"}